Assay results taken from patent US7691382B2 (priority 2003, dated 2010).
End groups of sequences in plain letters are not given here.

Experiment: peptide made by a vendor
Conditions: whole synthesis, scale 5 micromole

WRKWRKRWWWRKWRKRWW
final HPLC purity: >95%
